Experimental data reported in patent US20220305051A1 (priority 2019, published 2022).

How the values were obtained:
[1] = system: exposure to chlorine, bromine and/or phosgene gas; settings: IM injection post-Cl2 gas exposure, mice and rats; cited from earlier work
[2] = system: exposure to chlorine, bromine and/or phosgene gas; assay: Animal models of chlorine, bromine and/or phosgene gas poisoning, post-exposure nitrite (summary); settings: planned dosing study, Br2 or COCl2 exposure

**Q.** Which “ALI and reactive airways” value [1] does the source give for `O=NO` [nitrite, sodium nitrite] here?
**A.** decreases ALI and reactive airways

**Q.** And the “Nitrite dose needed for similar protection, females vs males” value [2]?
**A.** higher nitrite doses will be required for females compared to males
